Measurements reported in article PMC8786148 (PLoS ONE, 2022).

Test: general procedure: Fmoc solid-phase peptide synthesis; NovaPEG Rink amide resin; HBTU/HOBt/DIPEA
Settings: whole synthesis, LC-HRMS

Substance	final LC-MS purity [%]
H-GIGKFLHSAKKFGKAFV-NH2	99.8
H-GIGKFLHSAKKFGKAFVGEIMNS-NH2	98.0
H-GIGKFLHSUKKFGKUFV-NH2	>99.9
H-GIGKFLHSZKKFGKZFV-NH2	96.9
H-GIKKFLKSZKKFVKZFK-NH2	96.9
H-KKKKKKKKKGGGLLALLALLA-NH2	98.0
H-KKKLAKLKLGAKLKLKGKLGA-NH2	>99.9
H-KLLKKAGKLLKKAGKLLKKAG-NH2	>99.9
H-TVIEVASKMCSKMRLLKGLCKSITKRFLRR-NH2	96.5
